Data source: PubChem BioAssay AID504761 (Drosophila RNAi Screening Center, 2011)
The deposit covers about 22,000 reagents; shown is an unselected part of those that have a named target and a result. In the full data, 116 (0.52%) were called active. 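Calls depend on retest data that are not deposited; infection was ranked per plate without normalising between plates; the unit of the infection score is not given.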 The raw values are shown without normalisation. Further read-outs or replicates are left out here. Not given: the amount of reagent, the time to read-out.

Assay: 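Genome-wide fly cell screen for genes dengue virus requires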 (primary screen)
Cells: D.Mel-2 cells from Drosophila
Reagents: long dsRNA against Drosophila genes
Challenge: infection with dengue virus type 2; dose and infection time not stated
Detection: 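Per well on two replicate plates, imaging gave the percent of cells positive for viral envelope protein, ranked by infection, and a nuclear count of cells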
Reading the numbers: infection score: higher = more virus-infected cells; cell count: higher = more cells in the well
Call rule: 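Low infection ranks in the two replicates (chance level up to 0.065) followed by a retest with a 1.5-fold or larger significant decrease, p below 0.05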
Meaning of the calls: active = confirmed: knock-down lowers infection; inactive = not picked or not confirmed

Knock-down of ssp2 (short spindle 2) [DRSC11052] came out at: infection score, replicate 1 = 6.36; cell count, replicate 1 = 6293; inactive. With knock-down of ssp2 (short spindle 2) [DRSC23906], the record shows infection score, replicate 1 = 5.2; cell count, replicate 1 = 6152; inactive. For fz3 (frizzled 3) [DRSC18779], the values are infection score, replicate 1 = 5.48; cell count, replicate 1 = 5711; inactive. fz3 (frizzled 3) [DRSC29682] gave infection score, replicate 1 = 7.16; cell count, replicate 1 = 1201; inactive. For mus101 (mutagen-sensitive 101) [DRSC19388] the deposit lists infection score, replicate 1 = 21.6; cell count, replicate 1 = 4847; inactive. For GlyT (Glycine transporter) [DRSC04512] the deposit lists infection score, replicate 1 = 7.68; cell count, replicate 1 = 5913; inactive.

GlyT (Glycine transporter) [DRSC26130] scored infection score, replicate 1 = 8.63; cell count, replicate 1 = 5837; inactive. PGRP-LC (Peptidoglycan recognition protein LC) [DRSC08980] gave infection score, replicate 1 = 2.34; cell count, replicate 1 = 6023; inactive. Against PGRP-LC (Peptidoglycan recognition protein LC) [DRSC10416], the entry reads infection score, replicate 1 = 1.23; cell count, replicate 1 = 5866; inactive. PGRP-LC (Peptidoglycan recognition protein LC) [DRSC10417] gave infection score, replicate 1 = 1.96; cell count, replicate 1 = 5654; inactive. PGRP-LC (Peptidoglycan recognition protein LC) [DRSC28556] scored infection score, replicate 1 = 11.2; cell count, replicate 1 = 5264; inactive. Against Rchy1 (Ring finger and CHY zinc finger domain containing 1) [DRSC23118], the values are infection score, replicate 1 = 0.66; cell count, replicate 1 = 6027; inactive.

For Rchy1 (Ring finger and CHY zinc finger domain containing 1) [DRSC26775], the values are infection score, replicate 1 = 2.54; cell count, replicate 1 = 6307; inactive.
